According to PMC8879871, “Chemical Synthesis of a Functional Fluorescent-Tagged α-Bungarotoxin” (Toxins, 2022):

Biological target: T1, Cy5-α-bungarotoxin (synthetic fluorescent-tagged α-bungarotoxin) (Bungarus multicinctus)
T1 chain: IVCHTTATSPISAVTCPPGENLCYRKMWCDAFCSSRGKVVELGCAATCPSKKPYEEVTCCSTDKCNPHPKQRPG
Assay: MST

## GSGWRYYESSLEPYPDGSGK (biotin on the extra C-terminal K; free C-terminal acid (-OH)) [BSpep, GSGWRYYESSLEPYPDGSGK(biotin)-OH, 20-mer peptide mimicking the α-bungarotoxin binding site]
  Kd: 1040 nM
